Reference: paper PMC7024169, “Synthesis and Antimalarial Activity of 1,4-Disubstituted Piperidine Derivatives” (Molecules, 2020)

Legend:
[1] = system: Plasmodium falciparum 3D7 Strain; test: Antiplasmodial SYBR Green I assay, chloroquine-sensitive 3D7 strain; format: cell-based
[2] = system: Plasmodium falciparum W2 Strain; test: Antiplasmodial SYBR Green I assay, chloroquine-resistant W2 strain; format: cell-based

N-(1-(2-Chlorobenzylpiperidin-4-yl)-2-(2-chlorophenoxy)-N-phenylacetamide
activity against 3D7 strain, in words [1]: good activity
activity against W2 strain, in words [2]: good activity
